# PMC12750222, “Cytosporone B Affects ATP Production of Trypanosoma cruzi: A Lethal Action Investigation” (ACS Omega, 2025)
# Tested on: T. cruzi intracellular amastigotes
# Assay: Antiamastigote assay in infected peritoneal macrophages (Giemsa, infection index)
# Assay type: cell-based, Trypanosoma cruzi
# Conditions: ratio between CC50 in NCTC cells and IC50 in intracellular amastigotes
# Protocol: Murine conjunctive cells (NCTC clone 929, ATCC) and rhesus monkey kidney cells (LLC-MK2, ATCC CCL 7) were maintained in RPMI-1640 supplemented with 10% fetal bovine serum (FBS) at 37 °C in 5% CO2 humidified incubator. Peritoneal macrophages were collected by washing the peritoneal cavity of BALB/c mice with RPMI-1640 medium (Sigma-Aldrich) supplemented with 10% FBS, and were maintained at 37 °C in a 5% CO2 humidified incubator. T. cruzi trypomastigotes (Y strain) were cultivated by continuous in vitro passage in LLC-MK2, in RPMI-1640 supplemented with 2% FBS at 37 °C in 5% CO2 humidified incubator. Antitrypomastigote activity was evaluated in vitro using trypomastigotes obtained from infected LLC-MK2 cell cultures. […]
# Macrophages were seeded in 16-well chamber slides (NUNC Thermo Fisher Scientific, USA) and after 24 h infected with trypomastigotes (1:5, host cell/parasite ratio) for 2 h. […] After treatment, the cells were fixed and stained with Giemsa, and the slides were analyzed under a digital light microscope (EVOS M500, Thermo Fisher Scientific, USA). The infection index was determined by counting 200 macrophages and calculating the percentage of infected cells multiplied by the average number of amastigotes per infected macrophage. […]
row,Compound,SI (selectivity index)
1,"CCCCCCCC(=O)c1c(O)cc(O)cc1CC(=O)O [Compound 5, Cytosporone A]",>6.7
2,Dothiorelone Q [Compound 4],>4.6
